Measurements from publication PMC9914633 (International Journal of Environmental Research and Public …, 2023).

Test system: NCCc1c[nH]c2ccc(O)cc12
Assay: purified protein
Details: acetyl-CoA 0.5 mM, 100 mM potassium phosphate pH 8.8, 30 °C, 30 min, GST fusion

With “xoSNAT3 (GST-xoSNAT3) (Xanthomonas oryzae pv. oryzae)” the Km was 709.98 µM.
